A mixed list of measured activities; the numbers were collected in NIAID ChemDB.

Shared fields: tests on isolated targets; species: HIV-1; protein: Tat:TAR/LTR

ICn: concentration for n% inhibition. Conditions beyond the fields shown may differ between rows.

| compound | measure | read by | result |
|---|---|---|---|
| COc1ccc2nc3cc(Cl)ccc3c(NCCCCN(CCCCN)CCCCN)c2c1 | IC50 | gel | 0.027 µM |
| NCCCC[C@@H]1NC(=O)[C@H](CCCN=C(N)N)NC(=O)[C@H](Cc2ccccc2)NC(=O)[C@H](CCCN=C(N)N)NC(=O)[C@H](CCCN=C(N)N)NC1=O | Ki | FRET | 1.87 µM |
| NCCCOc1ccc(-c2ccccn2)cc1CNCC1CCNCC1 | Ki | FRET | 0.428 µM |
| C[C@@H](CN[C@H](CN[C@H](CNCCC(N)=O)Cc1ccc(O)cc1)Cc1ccc(O)cc1)NC[C@H](Cc1ccc(O)cc1)NC[C@H](Cc1ccc(O)cc1)NC[C@@H](N)Cc1ccc(O)cc1 | IC50 | luciferase | 3.2 µM |
| COc1ccc(OCCCN)c(CN2CCN(C(=N)N)CC2)c1 | Ki | FRET | 350 µM |
| CNC(=O)[C@@H](Cc1ccccc1)NP(=O)(O)OC[C@H]1O[C@@H](n2cc(C)c(=O)[nH]c2=O)C[C@@H]1N=[N+]=[N-] | Ki | fluorescence | 0.03 µM |
| COc1ccc2nc3cc(Cl)ccc3c(NCCCN(CCCCN)CCCCN)c2c1 | IC50 | gel | 0.044 µM |
| NCCCC[C@H](COC(=O)O)NC(=O)CN(CCCCN)C(=O)OC[C@@H](N)CCCN=C(N)N | IC50 | nucleotide incorporation / radiometric | 50 µM |
| CC(=O)NCCN(CCC(=O)NCCN(CCC(=O)NCCN(CCC(=O)NCCN(CCC(=O)NCCN(CCC(=O)NCCC(N)=O)C(=O)[C@@H](N)Cc1ccccc1)C(=O)[C@@H](N)CCCN=C(N)N)C(=O)[C@@H](N)Cc1ccccc1)C(=O)[C@@H](N)CCCN=C(N)N)C(=O)[C@@H](N)CCCCN | IC50 | FRET / fluorescence | 0.0347 µM |
| CN1CCN(c2ccc3nc(-c4ccc(OCc5cn(CCCCCn6cc(CCCCc7cn(C[C@H]8O[C@@H](O[C@@H]9[C@@H](O)[C@H](N)C[C@H](N)[C@H]9O[C@H]9O[C@H](CN)[C@@H](O)[C@H](O)[C@H]9N)[C@H](O)[C@@H]8O[C@H]8O[C@@H](CN)[C@@H](O)[C@H](O)[C@H]8N)nn7)nn6)nn5)cc4)[nH]c3c2)CC1 | IC50 | FRET / binding | 11.6 µM |
| COc1ccc(OCCCN)c(CNCCCCN=C(N)N)c1 | Ki | FRET | 3.4 µM |
| CC(CC(N)=O)NC[C@H](Cc1ccc(O)cc1)NC[C@H](Cc1ccc(O)cc1)NC[C@@H](N)Cc1ccc(O)cc1 | IC50 | luciferase | 82.8 µM |
| CN(C)CCn1c2ccccc2c2cc3nc(Cl)ccc3cc21 | IC50 | FRET | 46 µM |
| NCCCCN(CCCN)CCNC(=O)c1c2ccccc2nc2ccccc12 | IC50 | gel | >1 µM |
| NC(=O)CCNC[C@H](Cc1ccc(O)cc1)NC[C@H](Cc1ccc(O)cc1)NC[C@H](Cc1ccc(O)cc1)NC[C@H](Cc1ccc(O)cc1)NC[C@H](Cc1ccc(O)cc1)NC[C@H](Cc1ccc(O)cc1)NC[C@@H](N)Cc1ccc(O)cc1 | IC50 | luciferase | 0.5 µM |
| CN(C)CCCN1c2ccccc2Sc2ccc(Cl)cc21 | IC50 | FRET | 500 µM |
| N#Cc1ccc([N+](=O)[O-])c(NCCC[NH3+])c1 | IC50 | ELISA | 63.4 µM |
| Nc1cc2c(=O)c(C(=O)O)cn(C3CC3)c2cc1N1CCN(c2cccc(C(F)(F)F)c2)CC1 | Ki | gel | 3.8 µM |
| CC(=O)NCCN(CCC(=O)NCCN(CCC(=O)NCCN(CCC(=O)NCCN(CCC(=O)NCCN(CCC(=O)NCCC(N)=O)C(=O)[C@@H](N)Cc1ccccc1)C(=O)[C@@H](N)CCCN=C(N)N)C(=O)[C@@H](N)Cc1ccccc1)C(=O)[C@@H](N)Cc1ccccc1)C(=O)[C@@H](N)CCCCN | IC50 | FRET / fluorescence | >2 µM |
| NCCCC[C@@H](CN[C@H](CNCCC(N)=O)Cc1ccc(O)cc1)NC[C@H](Cc1ccc(O)cc1)NC[C@H](CCCCN)NC[C@H](Cc1c[nH]c2ccccc12)NC[C@@H](N)Cc1ccc(O)cc1 | IC50 | luciferase | 0.2 µM |
| CN1CCN(CCCN2c3ccccc3Sc3ccc(C(F)(F)F)cc32)CC1 | IC50 | gel | >10 µM |
| COC1CC[C@@H](OCCCN=C(N)N)[C@@H](COCCCN=C(N)N)O1 | Ki | FRET | 2.5 µM |
| CC(=O)NCCN(CCC(=O)NCCN(CCC(=O)NCCN(CCC(=O)NCCN(CCC(=O)NCCN(CCC(=O)NCCC(N)=O)C(=O)[C@@H](N)Cc1ccccc1)C(=O)[C@@H](N)CCCN=C(N)N)C(=O)[C@@H](N)Cc1ccccc1)C(=O)[C@@H](N)CCCCN)C(=O)[C@@H](N)CCCN=C(N)N | IC50 | FRET / fluorescence | 0.362 µM |
| NCCCN(CCCN)CCCNc1c2ccccc2nc2ccccc12 | IC50 | gel | 0.031 µM |
| c1ccc2sc(Oc3ccc(-c4cc5ccccc5s4)cc3CNCCN3CCNCC3)cc2c1 | Ki | FRET | 2.89 µM |
| COc1ccc2nc3cc(Cl)ccc3c(NCCCCCN(CCCCN)CCCCN)c2c1 | IC50 | gel | 0.03 µM |
| NC(N)=NCCCCNCc1cc(-c2cccs2)ccc1OCCN=C(N)N | Ki | FRET | 0.86 µM |
| COc1ccc2nc3cc(Cl)ccc3c(NCCCCN(CCCN)CCCCN)c2c1 | IC50 | gel | 0.076 µM |
| NCC1O[C@H](O[C@H]2C(N)C[C@@H](N)C(O)[C@H]2O[C@@H]2O[C@H](CNC(=O)[C@@H](N)Cc3cnc[nH]3)[C@H](O[C@H]3O[C@@H](CN)[C@@H](O)C(O)C3N)C2O)C(N)[C@@H](O)[C@@H]1O | IC50 | RNase H / fluorescence | 1.93 µM |

For reference, 3 entries again:

compound,measure,read by,result
Nc1cc2c(=O)c(C(=O)O)cn(C3CC3)c2cc1N1CCN(c2cccc(C(F)(F)F)c2)CC1,Ki,gel,3.8 µM
NCCCC[C@H](COC(=O)O)NC(=O)CN(CCCCN)C(=O)OC[C@@H](N)CCCN=C(N)N,IC50,nucleotide incorporation / radiometric,50 µM
CC(=O)NCCN(CCC(=O)NCCN(CCC(=O)NCCN(CCC(=O)NCCN(CCC(=O)NCCN(CCC(=O)NCCC(N)=O)C(=O)[C@@H](N)Cc1ccccc1)C(=O)[C@@H](N)CCCN=C(N)N)C(=O)[C@@H](N)Cc1ccccc1)C(=O)[C@@H](N)Cc1ccccc1)C(=O)[C@@H](N)CCCCN,IC50,FRET / fluorescence,>2 µM